Reference: US11980632B2 (priority 2020, dated 2024)

Assays:
corona-pseudovirus = settings: Calu-3, 4 passages, 1 g/L 3-FL
[1] = test system: nitric oxide (NO) production in A549 cells; settings: A549 cells passage-cultured 3 passages at 1.0 g/L, H1N1 infected, medium collected at 48 hours
influenza H1N1 virus = settings: MDCK medium with 1 or 10 g/L 2′-FL, 0 to 3 passages, H1N1, 72 hours; regardless of concentration or number of passages
H1N1 influenza virus = settings: 0.1 or 1.0 g/L, 0, 1 and 3 passages, MDCK, H1N1, 18 hours; regardless of concentration and number of passages

Row | Structure (SMILES) | fluorescence compared to the control group passage-cultured in normal culture medium (corona-pseudovirus) | NO concentration relative to the experimental group treated with PBS [1] | reduction in plaque formation (influenza H1N1 virus) | cytopathic effect reduction (H1N1 influenza virus)
1 | C[C@@H]1OC([C@]2(O)[C@H](O[C@@H]3O[C@H](CO)[C@H](O)[C@H](O)[C@H]3O)[C@@H](CO)OC(O)[C@@H]2O)[C@@H](O)[C@H](O)[C@@H]1O (stereo partly shown) | ¼ | about 3.9 fold | – | –
2 | C[C@@H]1OC([C@]2(O)[C@H](O[C@H]3[C@H](O)[C@@H](O)C(O)O[C@@H]3CO)O[C@H](CO)[C@H](O)[C@@H]2O)[C@@H](O)[C@H](O)[C@@H]1O (stereo partly shown) | – | – | did not exhibit a reduction in plaque formation | did not exhibit a great cytopathic effect reduction
